# Measured data: PubChem BioAssay AID504761 (Drosophila RNAi Screening Center, 2011)
# Purpose: 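Insect host genes that dengue virus relies on to spread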 (primary screen)
# System: D.Mel-2 cells from Drosophila
# Reagents: long dsRNA against Drosophila genes
# Challenge: infection with dengue virus type 2; dose and infection time not stated
# Read-out: 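Per well on two replicate plates, imaging gave the percent of cells positive for viral envelope protein, ranked by infection, and a nuclear count of cells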
# Scale: infection score: higher = more virus-infected cells; cell count: higher = more cells in the well
# Call rule: 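Very low infection ranking in both replicate wells (chance probability at most 0.065), then a retest showing infection dropped 1.5-fold or more at p below 0.05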
# Calls: active = confirmed: knock-down lowers infection; inactive = not picked or not confirmed
# The deposit covers about 22,000 reagents; below is an unselected part of those that have a named target and a result. In the full data, 116 (0.52%) got an active call. 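Calls depend on retest data that are not deposited; infection was ranked per plate without normalising between plates; the unit of the infection score is not given.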 Raw values are not corrected between plates. Unmarked entries are inactive. Reagents against one gene are numbered here. A plus sign joins genes that one reagent is predicted to hit. Further read-outs or replicates are left out here. The record does not give: the amount of reagent, the time to read-out.
gene knocked down,dsRNA no.,"infection score, replicate 1","infection score, replicate 2","cell count, replicate 1"
alc (alicorn),1,7.21,13.3,6230
alc (alicorn),2,2.11,2.65,6393
alc (alicorn),3,1.2,0.93,4331
CG9399,1,7.58,21,6586
CG10543,1,2.96,4.25,6545
Pfrx (6-phosphofructo-2-kinase),1,9.48,3.22,6012
Pfrx (6-phosphofructo-2-kinase),2,4.22,4.38,5853
Pfrx (6-phosphofructo-2-kinase),3,20.9,7.09,5755
"ATPsynbetaL (ATP synthase, beta subunit-like)",1,1.17,1.87,5989
"ATPsynbetaL (ATP synthase, beta subunit-like)",2,0.98,5.18,6626
CG15712,1,25.5,7.67,6033
CG7692,1,2.88,22.5,6490
CG7692,2,3.98,0.92,6557
mRpL41 (mitochondrial ribosomal protein L41),1,19.9,18.3,5507
mRpL41 (mitochondrial ribosomal protein L41),2,6.89,3.91,1117
Mnt,1,3.47,12.5,6449
Mnt,2,2.01,6.25,6557
Fuca (alpha-L-fucosidase),1,1.55,3.79,5750
Hdc (Histidine decarboxylase),1,12.4,10.9,6393
Hdc (Histidine decarboxylase),2,3.46,7.52,6243
Prosbeta2R1 (Proteasome beta2 subunit-related 1),1,0.84,1.91,6577
CG10845,1,0.92,5.76,5987
Spt7,1,3,2.57,7089
Spt7,2,13.8,10.1,4781

Part of the list above, reformatted:
gene knocked down	dsRNA no.	infection score, replicate 1	infection score, replicate 2	cell count, replicate 1
Pfrx (6-phosphofructo-2-kinase)	3	20.9	7.09	5755
ATPsynbetaL (ATP synthase, beta subunit-like)	1	1.17	1.87	5989
ATPsynbetaL (ATP synthase, beta subunit-like)	2	0.98	5.18	6626
CG15712	1	25.5	7.67	6033
CG7692	1	2.88	22.5	6490
CG7692	2	3.98	0.92	6557
mRpL41 (mitochondrial ribosomal protein L41)	1	19.9	18.3	5507
mRpL41 (mitochondrial ribosomal protein L41)	2	6.89	3.91	1117
Mnt	1	3.47	12.5	6449

Continued:
gene knocked down,dsRNA no.,"infection score, replicate 1","infection score, replicate 2","cell count, replicate 1"
DCAF12 (DDB1 and CUL4 associated factor 12),1,2.72,3.96,7210
dpr8 (defective proboscis extension response 8),1,6.15,9.38,2163
dpr8 (defective proboscis extension response 8),2,31.8,25.4,5524
dpr8 (defective proboscis extension response 8),3,19.4,15.6,5517
dpr8 (defective proboscis extension response 8),4,11.9,12.4,5682
LysD + LysC (retired record),1,1.99,6.84,5887
LysD + LysC (retired record),2,6.98,11.8,6164
CG5892,1,13.7,1.44,4982
CG5892,2,2.25,8.86,6799
Ucp4C (Uncoupling protein 4C),1,2.03,6.52,6101
Ucp4C (Uncoupling protein 4C),2,10.3,6.82,5888
CG7606,1,3.62,1,7063
CG31861,1,1.8,9.54,6165
CG31861,2,7.26,7.11,5826
pzg (putzig),1,3.35,9.48,6441
Kaz-m1 (Kazal-type protease inhibitor m1),1,4.32,7.69,6711
CG31717,1,2.09,0.19,6494
CG18301,1,7.4,6.39,6229
gem (gemini),1,4.45,6.47,6200
gem (gemini),2,14,11.4,3295
Vps52 (Vacuolar protein sorting 52),1,4.86,3.57,6272
CG9084,1,5.79,9.45,6525
UQCR-14 + CG32576,1,8.74,10.3,6536
NtR,1,10.5,4.51,5834
NtR,2,13.5,11,6277
CdGAPr (Cd GTPase activating protein-related),1,11.6,18.8,5786
CG3776,1,17,14,6035
CG9701,1,1.46,3.97,6666
CG9701,2,2.26,2.57,6206
ACXC (Adenylyl cyclase X C),1,13.1,4.08,6060
Tep4 (Thioester-containing protein 4),1,9.69,2.27,3324
CG5250,1,1.28,3.16,6584
Spn28Da (Serpin 28Da),1,4.92,5.77,5669
CG8097,1,6.42,12.5,5827
